Reference: patent US8987195B2 (priority 2012, dated 2015)

Sequences of proteins named here, by UniProt entry; tags and fusion partners are left off. Residues count along the entry.
UniProt P26663, 1027-1657 limits assumed: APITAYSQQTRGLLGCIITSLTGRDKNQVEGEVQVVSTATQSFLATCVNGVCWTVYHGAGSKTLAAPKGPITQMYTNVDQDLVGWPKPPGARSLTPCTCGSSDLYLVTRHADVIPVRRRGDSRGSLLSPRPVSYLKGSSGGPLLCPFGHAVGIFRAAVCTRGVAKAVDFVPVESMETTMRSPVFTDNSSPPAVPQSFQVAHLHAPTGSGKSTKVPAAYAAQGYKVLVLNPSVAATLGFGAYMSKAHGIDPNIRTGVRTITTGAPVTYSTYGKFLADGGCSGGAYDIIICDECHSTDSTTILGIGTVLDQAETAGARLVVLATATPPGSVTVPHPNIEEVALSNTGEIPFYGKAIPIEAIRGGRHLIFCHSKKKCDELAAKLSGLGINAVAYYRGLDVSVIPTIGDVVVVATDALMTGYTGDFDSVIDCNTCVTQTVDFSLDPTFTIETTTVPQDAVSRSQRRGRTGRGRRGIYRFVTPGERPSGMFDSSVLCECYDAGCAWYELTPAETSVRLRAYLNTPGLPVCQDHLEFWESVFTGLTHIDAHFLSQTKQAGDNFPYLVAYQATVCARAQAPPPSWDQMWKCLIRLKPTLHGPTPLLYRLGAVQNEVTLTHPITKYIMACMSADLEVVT
UniProt P26663, 1658-1711 partner limits assumed: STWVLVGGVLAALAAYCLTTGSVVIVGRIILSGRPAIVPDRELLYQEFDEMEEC

Tests used:
[1] = test system: HCV genotype 1b replicon; experiment: HCV replicon assay, genotype 1b replicon EC50
Experimental: Measuring Compound Inhibitory Potency (Genotype 1b Replicon EC50 (nM))
Measurement of inhibition by compounds was performed using the HCV replicon system. Several different replicons encoding different HCV genotypes or mutations were used. In addition, potency measurements were made using different formats of the replicon assay, including different ways of measurements and different plating formats. See Jan M. Vrolijk et al., A replicons-based bioassay for the measurement of interferons in patients with chronic hepatitis C, 110 J. VIROLOGICAL METHODS 201 (2003); Steven S. Carroll et al., Inhibition of Hepatitis C Virus RNA Replication by 2′-Modified Nucleoside Analogs, 278(14) J. BIOLOGICAL CHEMISTRY 11979 (2003). However, the underlying principles are common to all of these determinations, and are outlined below.
Stable neomycin phosphotransferase encoding replicon-harboring cell lines were used, so all cell lines were maintained under G418 selection prior to the assay. In some cases the cell lines encoded a luciferase:Neo^r fusion and could be assayed either directly by determination of RNA copy number, or indirectly through measurement of the luciferase activity.
To initiate an assay, replicon cells were plated in the presence of a dilution series of test compound in the absence of G418. Typically, the assays were performed in a 96-well plate format for manual operation, or a 384 well plate in an automated assay. Replicon cells and compound were incubated for 24-48 hours, depending on the assay. At the end of the assay, cells are washed free of media and compound and then lysed. For direct quantitation, RNA levels were measured by ^32P-probe hybridization and protection, or in a TAQMAN based assay and normalized to cellular cyclophilin A RNA levels. In some cases, luciferase activity was measured using a conventional luciferase assay. In all cases EC50 determinations were calculated as a percent of a DMSO control by fitting the data to a four parameter fit function.

[2] = target: HCV NS3/4A protease genotype 1b (Hepatitis C virus genotype 1b, UniProt P26663); experiment: HCV NS3/4A protease time-resolved fluorescence (TRF) assay, Ki against genotype 1b; assay type: biochemical; conditions: read-out: IC50 [gt-1b], NS3/4A genotype 1b, enzyme 0.2 nM
Experimental: Measuring NS3/4A Inhibitory Activity (Ki) Against Genotype 1b, Against A156T Mutants and Against Genotype 3a
One assay for measuring inhibitory activity is HCV NS3 protease time-resolved fluorescence (TRF) assay as described below and in Mao et al., Anal. Biochem. 373:1-8, 2008 and International Patent Application Publication WO 2006/102087. A NS3 protease assay can be performed, for example, in a final volume of 20 μl assay buffer containing 50 mM HEPES, pH 7.5, 150 mM NaCl, 15% glycerol, 0.15% TRITON X-100, 10 mM DTT, and 0.1% PEG 8000. NS3 and NS4A protease is pre-incubated with various concentrations of inhibitors in DMSO for 30 min. The reaction is initiated by adding the TRF peptide substrate (final concentration 25 nM). NS3 mediated hydrolysis of the substrate was run for 2.5 hours at room temperature. Product fluorescence is detected using A Pherastar Plus plate reader (BMG) or Envision (Perkin Elmer Life and Analytical Sciences with excitation at 340 nm and emission at 615 nm using the appropriate delay time optimized for the europium fluorescence probe. Testing concentrations of different enzyme forms are selected to result in a signal to background ratio (S/B) of 10-30. IC50 values are derived using a standard four-parameter fit to the data. Ki values are derived from IC50 values using the following formula, IC50=Ki(1+[S]/KM), Eqn (1), where [S] is the concentration of substrate peptide in the reaction and KM is the Michaelis constant. See P. Gallinari et al., 38 BIOCHEM. 5620-32 (1999); P. Gallinari et al., 72 J. VIROL. 6758-69 (1998); M. Taliani et al., 240 ANAL. BIOCHEM. 60-67 (1996); Mao et al., Analytical Biochemistry 373: 1-8, 2008.
The assay described above was run against genotype 1b at a concentration of 0.2 nM, against A156T mutant strains at a concentration of 0.4 nM, and against genotype 3a at a concentration of 0.025 nM.

SMILES | EC50 ([1]; read-out: EC50 [gt-1b]) | IC50 [2] | EC50 ([1]; read-out: EC50 [gt-1b], K+ salt, tested form: K salt) | IC50 ([2]; K+ salt, tested form: K salt)
Cc1nc2ccc(O)cc2c2c1O[C@]1(CC2)C[C@H]2C(=O)N[C@]3(C(=O)NS(=O)(=O)C4(C)CC4)C[C@H]3/C=C\CCCCC[C@H](NC(=O)OC(C)(C)C)C(=O)N2C1 | 47.6 nM | 0.006 nM | – | –
COc1ccc2nc(C(C)C)c3c(c2c1)CC[C@]1(C[C@H]2C(=O)N[C@]4(C(=O)NS(=O)(=O)C5(C)CC5)C[C@H]4/C=C\CCCCC[C@H](NC(=O)OCC(C)(C)C)C(=O)N2C1)O3 | 4.25 nM | 0.016 nM | – | –
COc1ccc2nc(C)c3c(c2c1)CC[C@]1(C[C@H]2C(=O)N[C@]4(C(=O)NS(=O)(=O)C5(C)CC5)C[C@H]4/C=C\CCCCC[C@H](NC(=O)OC4CCCC4)C(=O)N2C1)O3 | – | – | 1.03 nM | 0.004 nM
CC(C)(C)OC(=O)N[C@H]1CCCCC/C=C\[C@@H]2C[C@@]2(C(=O)NS(=O)(=O)C2(C)CC2)NC(=O)[C@@H]2C[C@]3(CCc4c(c(CO)nc5ccccc45)O3)CN2C1=O | 11.3 nM | 0.036 nM | – | –

Like-named read-outs stand apart in the source and are kept apart here.
